Measurements reported in PubChem BioAssay AID504761 (Drosophila RNAi Screening Center, 2011).
Screen: 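Genome-wide fly cell screen for genes dengue virus requires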 (primary screen). Cell system: D.Mel-2 cells from Drosophila. Reagent: long dsRNA against Drosophila genes. Conditions: infection with dengue virus type 2; dose and infection time not stated. Read-out: 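Per well on two replicate plates, imaging gave the percent of cells positive for viral envelope protein, ranked by infection, and a nuclear count of cells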. Direction: infection score: higher = more virus-infected cells; cell count: higher = more cells in the well. Active means: 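Low infection ranks in the two replicates (chance level up to 0.065) followed by a retest with a 1.5-fold or larger significant decrease, p below 0.05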. Calls: active = confirmed: knock-down lowers infection; inactive = not picked or not confirmed.
In all, the deposit lists about 22,000 reagents; this is a random part of those that have a named target and a result. Of all reagents, 116 (0.52%) are marked active. 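Calls depend on retest data that are not deposited; infection was ranked per plate without normalising between plates; the unit of the infection score is not given.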 Raw values vary from plate to plate and are shown uncorrected. Unmarked entries are inactive. A plus sign joins genes that one reagent is predicted to hit. The record does not give: the amount of reagent, the time to read-out.

gene | dsRNA | infection score, replicate 1 | infection score, replicate 2 | cell count, replicate 1 | cell count, replicate 2
CG16820 | DRSC02522 | 20.8 | 27 | 6522 | 5578
Or59a | DRSC04631 | 6.25 | 2.36 | 6412 | 6768
CG15461 | DRSC20532 | 2.49 | 6.12 | 5979 | 5263
sna | DRSC03613 | 1.41 | 0.89 | 6901 | 6661
Oatp26F | DRSC02149 | 3.84 | 2.4 | 6821 | 6633
Oatp26F | DRSC02272 | 2.85 | 5.07 | 6807 | 6076
Oatp26F | DRSC02695 | 2.95 | 2.1 | 6638 | 6053
Oatp26F | DRSC27346 | 12.7 | 10.7 | 6252 | 6077
Rcd1 | DRSC07116 | 0.58 | 21.9 | 346 | 4966
Rcd1 | DRSC23713 | 7.1 | 5.95 | 5478 | 5715
CG9945 | DRSC07347 | 1.84 | 1.09 | 5771 | 6393
CG9945 | DRSC28885 | 7.28 | 14.2 | 5718 | 5419
Smu1 | DRSC15803 | 12.3 | 7.51 | 5353 | 6471
CG3213 | DRSC00576 | 4.6 | 12.7 | 5390 | 4951
CG3213 | DRSC25106 | 2.96 | 2.58 | 6851 | 5891
CG32655 | DRSC18925 | 2.79 | 6.34 | 6482 | 6418
CG8086 | DRSC03078 | 3.11 | 0.68 | 6339 | 6664
CG8086 | DRSC03079 | 4.79 | 11.3 | 5947 | 5577
CG8086 | DRSC27677 | 1.61 | 5.28 | 6850 | 6672
Srp72 | DRSC15800 | 3.71 | 4.76 | 5978 | 6738
Srp72 | DRSC28338 | 6.28 | 6.4 | 5825 | 4701
Rad9 | DRSC11263 | 12.6 | 5.7 | 5063 | 6594
Naa30B | DRSC08245 | 2.1 | 3.3 | 6040 | 6554
Peritrophin-15b | DRSC02266 | 7.28 | 1.4 | 6082 | 6562
slf | DRSC00583 | 4.66 | 4.05 | 6379 | 6716
slf | DRSC27361 | 1.47 | 9.47 | 6605 | 6486
CG13086 | DRSC02190 | 5.89 | 1.6 | 5964 | 6678
CG13086 | DRSC27538 | 12.3 | 12.8 | 6765 | 6597
CG1314 | DRSC20495 | 9.43 | 2.65 | 6339 | 6217
Ir62a | DRSC08250 | 4.08 | 5.09 | 6076 | 6145
CG15251 (retired record) | DRSC17980 | 4.79 | 8.24 | 6414 | 6640
CG6179 | DRSC19973 | 7.46 | 7.15 | 6143 | 5945
CG16972 | DRSC02550 | 4.16 | 6.4 | 6100 | 6294
Ptp69D | DRSC11258 | 0.57 | 6.97 | 5465 | 5492
Usp8 | DRSC15876 | 14.8 | 4.47 | 6378 | 6155
CG15605 | DRSC06558 | 9.25 | 20.8 | 6520 | 4465
lectin-37Db | DRSC03279 | 2.58 | 14.5 | 6156 | 5922
Spps | DRSC23206 | 3.97 | 1.55 | 7073 | 6915
TBC1d7 + mRpS24 | DRSC14611 | 6.38 | 2.79 | 6349 | 6266

Targets listed so far whose gene name starts with O or o (5):
gene | dsRNA | infection score, replicate 1 | infection score, replicate 2 | cell count, replicate 1 | cell count, replicate 2
Or59a | DRSC04631 | 6.25 | 2.36 | 6412 | 6768
Oatp26F | DRSC02149 | 3.84 | 2.4 | 6821 | 6633
Oatp26F | DRSC02272 | 2.85 | 5.07 | 6807 | 6076
Oatp26F | DRSC02695 | 2.95 | 2.1 | 6638 | 6053
Oatp26F | DRSC27346 | 12.7 | 10.7 | 6252 | 6077
